The values that follow come from publication PMC6459484, “Synthetic surfactin analogues have improved anti-PEDV properties” (PLoS ONE, 2019).

Square brackets hold non-standard residues; d marks the D form. Peptide text beside a SMILES is read from it. * marks the point of attachment. X1 = CCCCCCCc1ccc(-c2ccc(C(=O)*)cc2)cc1; Palmitoyl = CCCCCCCCCCCCCCCC(=O)*

In the data set the test system is PEDV CV777. In words: Plaque reduction assay (anti-PEDV activity). The format is cell-based, Porcine epidemic diarrhea virus. As to conditions: ratio of hemolytic CC50 (porcine RBCs) to anti-PEDV EC50. The protocol: Cercopithecus aethiops kidney epithelial cells (Vero, ATCC, CCL-81) were cultured in high glucose DMEM (Gibco, US), supplemented with 10% fetal bovine serum (FBS, GIBCO), at 37 °C in a 5% CO2 humidified atmosphere. Cells were routinely seeded at a density of 2×10^5 /mL in plastic tissue culture flasks (25 cm^2 flasks, Corning, USA) and passaged every 3–4 days. PEDV CV777 was provided by the Jiangsu Academy of Agricultural Sciences (JAAS).
Vero cells were seeded at 2 × 10^5 cells/well in 24-well tissue culture plates and incubated 18–24 h at 37 °C until approximately 95% confluency was reached. 100 PFU of PEDV mixed with an equal volume of SLP in DMEM or DMEM alone were incubated 10 minutes at 37 °C, then added into the wells of the Vero cells and incubated 30 minutes at 4 °C. Cells were washed 3 times with DMEM then overlaid with DMEM/1% agar and incubated 72 hours at 37 °C. The cells were fixed with 4% formaldehyde, then stained with 0.1% crystal violet after the agar overlay was removed. The data are representative of 3 biological replicates and each plaque assay was performed in triplicate and values are expressed as means ± the standard deviation. Curve fitting and EC50 were calculated with GraphPad Prism 6 using the log[inhibitor] vs. response equation.
The SLPs were tested for anti-PEDV activity using a plaque reduction assay. Serial dilutions of SLPs were incubated with an equal volume of PEDV then aliquoted onto precooled cells in 12-well plates. After the virus has adsorbed to the cells at 4 °C, SLPs were washed away. The adsorbed virus particles were then counted by plaque forming assays (Fig 2A). The results were fitted to a sigmoid-curve and plotted Fig 2B. All SLPs have potent anti-PEDV effects above 50 μg/ml, but differences in their anti-PEDV effect.
Fig 2 Anti-PEDV activities of lipopeptides. (A) PEDV was incubated with series concentrations of SLPs for 10 minutes at 37 °C. After washing cells of unadsorbed virus, the remaining infectious particles was detected by plaque assay. (B) Anti-PEDV activity (% remaining PFU) plotted as a function of lipopeptide concentration. The results of three independent experiments are shown as means ± standard deviation. 100% represents plaque counts in the control (no lipopeptide) sample.
(Plaque reduction counts the foci of infection that form in a cell layer.)
As for `CCCCCCCCCCCCCCCC(=O)N[C@@H](CCC(=O)O)C(=O)N[C@H](C(=O)N[C@H](CC(C)C)C(=O)N[C@@H](CC(=O)O)C(=O)N[C@H](CC(C)C)C(N)=O)C(C)C` [SLP3] (Palmitoyl-EV[dL]D[dL]-NH2), the “Selectivity index, SI = CC50/EC50” value worked out at 4.1.

Take `CCCCCCCCCCCCCCCC(=O)N[C@@H](CCC(=O)O)C(=O)N[C@H](C(=O)N[C@@H](CC(C)C)C(=O)N[C@@H](CC(=O)O)C(=O)N[C@@H](CC(C)C)C(N)=O)C(C)C` [SLP7] (Palmitoyl-EVLDL-NH2): the “Selectivity index, SI = CC50/EC50” value worked out at 19.7.

Turning to `CCCCCCCCCCCCCCCC(=O)N[C@@H](CCC(=O)O)C(=O)N[C@@H](CC(=O)O)C(=O)N[C@H](C(=O)N[C@H](CC(C)C)C(=O)N[C@H](CC(C)C)C(N)=O)C(C)C` [SLP9] (Palmitoyl-EDV[dL][dL]-NH2), the “Selectivity index, SI = CC50/EC50” value is recorded as 4.1.

Turning to `CCCCCCCc1ccc(-c2ccc(C(=O)N[C@@H](CCC(=O)O)C(=O)N[C@H](C(=O)N[C@H](CC(C)C)C(=O)N[C@@H](CC(=O)O)C(=O)N[C@H](CC(C)C)C(N)=O)C(C)C)cc2)cc1` [SLP10] (X1-EV[dL]D[dL]-NH2), the “Selectivity index, SI = CC50/EC50” value turned out to be 7.8.

For the compound Surfactin [reference compound], the “Selectivity index, SI = CC50/EC50” value is 4.0.
